{
  "source": "patent US20090162366A1",
  "binders": {"B1": {"name": "N547 (antibody, V domains shown)", "VH": "EVQLVESGGGLVKPGGSLRLSCAASGFTFSNALMSWVRQAPGKGLEWVGRIKSKTNGGTTDYAAPVKGRFTISRDDSKNTLYLQMNSLKTEDTAVYYCTTHLRYFDWLSDYWGQGTLVTVSS", "VL": "QSVLTQPPSMSAAPGQKVTISCSGSSSNIGNNYISWYQQLPGTAPKVLIYDNNKRPSGIPDRFSGSKSGTSATLGITGLQTGDEADYYCGSWDSSLSAGVFGTGTKVTVLG"}},
  "test_in_all_cases": "ELISA on peptide, Ab 10 µg/ml",
  "key": {"[1]": {"biological_target": "CM15 (influenza A virus)"}, "[2]": {"biological_target": "CM12 (influenza A virus)"}, "[3]": {"biological_target": "NM11 (influenza A virus)"}, "[4]": {"biological_target": "NM14 (influenza A virus)"}, "[5]": {"biological_target": "M12 (influenza A virus)"}, "[6]": {"biological_target": "CM14 (influenza A virus)"}, "[7]": {"biological_target": "CM17 (influenza A virus)"}, "[8]": {"biological_target": "CM16 (influenza A virus)"}, "[9]": {"biological_target": "CM13 (influenza A virus)"}, "[10]": {"biological_target": "NM13 (influenza A virus)"}, "[11]": {"biological_target": "NM12 (influenza A virus)"}},
  "data": [
    {"binder": "B1", "values": [
      {"measurement": "ELISA(OD450)", "setting": "[1]", "value": 0.08, "unit": "OD450"},
      {"measurement": "ELISA(OD450)", "setting": "[2]", "value": 0.07, "unit": "OD450"},
      {"measurement": "ELISA(OD450)", "setting": "[3]", "value": 0.07, "unit": "OD450"},
      {"measurement": "ELISA(OD450)", "setting": "[4]", "value": 0.16, "unit": "OD450"},
      {"measurement": "ELISA(OD450)", "setting": "[5]", "value": 0.07, "unit": "OD450"},
      {"measurement": "ELISA(OD450)", "setting": "[6]", "value": 0.08, "unit": "OD450"},
      {"measurement": "ELISA(OD450)", "setting": "[7]", "value": 0.08, "unit": "OD450"},
      {"measurement": "ELISA(OD450)", "setting": "[8]", "value": 0.08, "unit": "OD450"},
      {"measurement": "ELISA(OD450)", "setting": "[9]", "value": 0.08, "unit": "OD450"},
      {"measurement": "ELISA(OD450)", "setting": "[10]", "value": 0.06, "unit": "OD450"},
      {"measurement": "ELISA(OD450)", "setting": "[11]", "value": 0.16, "unit": "OD450"}
    ]}
  ]
}
